A mixed list of measured activities; the numbers were collected in NIAID ChemDB.

All rows: tests in culture; species: HIV-1

ECn: concentration that inhibits the pathogen or its effect by n%. Percent inhibition refers to the dose given; in toxicity tests it is the harm to the cells. Lines come from different laboratories, so protocols vary. Fold resistance has wild type as its base. An empty or dashed field is not shown.

smiles,method,strain or isolate,conditions,cells,changes,measure,dose,value
c1cc(CN2CCCNCCNCCCNCC2)ccc1CN1CCCNCCNCCCNCC1,p24,SW20 CLADE C R5X4,,PBMC,,inhibition,0.1 µM,0%
CCn1nc(Cc2ccc(OC3CC3)cc2)cc1C1CCN(C[C@H]2CN([C@@H](C(=O)O)C3CCCCC3)C[C@@H]2c2cccc(F)c2)CC1,β-galactosidase,BaL,,HeLa,,EC90,,<0.00014 µM
Cc1ccnc2c1NC(=O)c1cccnc1N2C1CC1,XTT,NL4-3,,CEM + CEM-SS,RT-L74V,fold resistance,,1
CCn1nc(Cc2cc(C(F)(F)F)cc(C(F)(F)F)c2)cc1C1CCN(C[C@H]2CN([C@@H](C(=O)O)C(C)(C)C)C[C@@H]2c2cccc(F)c2)CC1,β-galactosidase,BaL,50% human serum,HeLa,,EC90,,>0.3 µM
CC(C)=CCN1Cc2cc(Cl)cc3[nH]c(=S)n(c23)C[C@@H]1C,,,,MT-4,RT-D67N K70R T215Y K219Q Y181C,EC95,,>3 µM
Cc1cn([C@H]2C[C@H](N=[N+]=[N-])[C@@H](CO)O2)c(=O)[nH]c1=O,XTT,NL4-3(RT-4XAZT+L100I),,CEM + CEM-SS,RT-D67N K70R L100I T215Y K219Q,fold resistance,,20
Cc1cn([C@H]2C[C@H](N=[N+]=[N-])[C@@H](CO)O2)c(=O)[nH]c1=O,RT activity,LAV-Bru,7 d,U-937,,inhibition,25 µM,96%
Cc1cn([C@H]2C[C@H](N=[N+]=[N-])[C@@H](CO)O2)c(=O)[nH]c1=O,p24 / ELISA,LAI,,Primary T lymphocytes,,EC90,,0.1 µM
CC(C)(C)NC(=O)[C@@H]1C[C@@H]2CCCC[C@@H]2CN1C[C@@H](O)[C@H](Cc1ccccc1)NC(=O)[C@H](CC(N)=O)NC(=O)c1ccc2ccccc2n1,p24,NL4-3,,MT-4,PR-M46I,EC95,,0.025 µM
Cn1c2ccccc2c2c1cc(C#N)c(=O)n2-c1ccc([N+](=O)[O-])cc1,luciferase,NRTI resistant,,HeLa,RT-T69K K70G V75I F77L F116Y Q151M M184V,fold resistance,,15.7
CC[C@H](C)[C@H](C(=O)O)N1C[C@H](CN2CCC(c3cc(Cc4cccc(C#N)c4)nn3CC)CC2)[C@@H](c2cccc(F)c2)C1,β-galactosidase,BaL,,HeLa,,EC90,,<0.00014 µM
Cc1ccnc2c1NC(=O)c1cccnc1N2C1CC1,plaque count,HIVRTMF (RT L74V Y181C),,HT4 + HT4 LacZ-1,RT-L74V Y181C T215Y,fold resistance,,53.3
CCCCCCCCCCCCCCCCOP(=O)(OC[C@H]1OC(O)[C@H](O)[C@@H](O)[C@@H]1O)OC[C@H]1O[C@@H](n2cc(C)c(=O)[nH]c2=O)C[C@@H]1N=[N+]=[N-],RT activity,LAV-Bru,26 d,CEM,,inhibition,0.2 µM,0%
C#C[C@]1(CO)O[C@@H](n2cnc3c(N)nc(F)nc32)C[C@@H]1O,fluorescence,Clinical isolate,,MT4-GFP,C162Y,EC50,,0.00063 µM
Cc1cn([C@H]2C[C@H](N=[N+]=[N-])[C@@H](CO)O2)c(=O)[nH]c1=O,luciferase,NRTI resistant,,HeLa,RT-V75I F77L F116Y Q151M,fold resistance,,43.9
CC[C@H](C)[C@H](C(=O)O)N1C[C@H](CN2CCC(c3cc(Cc4ccc(OC)c(C#N)c4)nn3CC)CC2)[C@@H](c2cccc(F)c2)C1,β-galactosidase,BaL,50% human serum,HeLa,,EC90,,0.033 µM
Cc1cn([C@H]2C[C@H](N=[N+]=[N-])[C@@H](COP(=O)(O)OC[C@H]3OC(O)[C@H](O)[C@@H](O)[C@@H]3O)O2)c(=O)[nH]c1=O,RT activity,LAV-Bru,15 d,CEM,,inhibition,0.2 µM,96%
O=C1Nc2ccc(Cl)cc2[C@@](C#CC2CC2)(C(F)(F)F)O1,p24 / ELISA,,,Primary T lymphocytes,A62V V75I F77L F116Y Q151M,EC90,,0.44 µM
CC[C@H](C)[C@H](C(=O)O)N1C[C@H](CN2CCC(c3cc(Cc4ccc5c(c4)OCO5)nn3CC)CC2)[C@@H](c2cccc(F)c2)C1,β-galactosidase,BaL,,HeLa,,EC90,,<0.00014 µM
Cc1cn([C@H]2C=C[C@@H](CO)O2)c(=O)[nH]c1=O,p24 / ELISA,,,Primary T lymphocytes,A62V V75I F77L F116Y Q151M,EC90,,70.3 µM
Cc1cn([C@H]2C[C@H](N=[N+]=[N-])[C@@H](CO)O2)c(=O)[nH]c1=O,cytopathic effect / XTT,BaL,clinical isolate,Macrophage + Monocytes/macrophages,,EC50,,0.03 µM
Cc1ccnc2c1NC(=O)c1cccnc1N2C1CC1,β-galactosidase,3TC-resistant (RT M184V) M184V,,MAGI,RT-M184V,EC50,,0.064 µM
O=c1[nH]cnc2c1ncn2[C@H]1CC[C@@H](CO)O1,luciferase,Recombinant,,HeLa,RT-M41L A62V S68N G112S M184V,EC50,,0.79 µM
CC[C@@H](C)[C@H](C(=O)O)N1C[C@H](CN2CCC(c3cc(Cc4cccc(CN)c4)nn3CC)CC2)[C@@H](c2cccc(F)c2)C1,β-galactosidase,BaL,,HeLa,,EC90,,0.0037 µM
CCNc1cccnc1N1CCN(C(=O)c2cc3cc(OC)ccc3[nH]2)CC1,MTT,Seropositive clinical isolate A,,PBMC,,inhibition,1 µM,87%
O=C1N(Cc2ccc(CO)cc2)[C@H](Cc2ccccc2)[C@H](O)[C@@H](O)[C@@H](Cc2ccccc2)N1Cc1ccc(CO)cc1,p24,A012B pre,,PBMC,,inhibition,0.07 µM,90%
CC(C)=CCOc1cc(NC(=S)c2ccoc2C)ccc1Cl,XTT,Dihydrocostatolide-resistant (RT-L100I),,CEM + CEM-SS,RT-L100I,EC50,,0.3 µM
CC(C)CN(C[C@@H](O)[C@H](Cc1ccccc1)NC(=O)[C@H](CC(N)=O)NC(=O)c1ccc2ccccc2n1)C(=O)NC(C)(C)C,p24,NL4-3,,MT-4,PR-L10R,EC95,,0.1 µM
CC(C)(C)NC(=O)[C@@H]1C[C@@H]2CCCC[C@@H]2CN1C[C@@H](O)[C@H](Cc1ccccc1)NC(=O)[C@H](CC(N)=O)NC(=O)c1ccc2ccccc2n1,p24,NL4-3,,MT-4,PR-D30N A71V,EC90,,0.01 µM
CC(C)=CCOc1cc(NC(=S)c2ccsc2C)ccc1Cl,XTT,Costatolide-resistant (RT L100I T139I),,CEM + CEM-SS,RT-L100I T139I,EC50,,0.08 µM
CCn1nc(Cc2ccc3c(c2)OCO3)cc1C1CCN(C[C@H]2CN([C@@H](C(=O)O)C(C)(C)C)C[C@@H]2c2cccc(F)c2)CC1,β-galactosidase,BaL,,HeLa,,EC90,,<0.00014 µM
O=C(O)P(=O)(O)O,RT activity,IIIB,6 d,PBL,,inhibition,16 µM,75%
CCCc1cc(=O)oc2c3c(c4c(c12)OC(C)(C)C=C4)O[C@@H](C)[C@H](C)[C@@H]3O,XTT,UC38-resistant (RT Y181C),,CEM + CEM-SS,RT-Y181C,EC50,,<0.03 µM

The first 3 rows once more:

| smiles | method | strain or isolate | conditions | cells | changes | measure | dose | value |
|---|---|---|---|---|---|---|---|---|
| c1cc(CN2CCCNCCNCCCNCC2)ccc1CN1CCCNCCNCCCNCC1 | p24 | SW20 CLADE C R5X4 |  | PBMC |  | inhibition | 0.1 µM | 0% |
| CCn1nc(Cc2ccc(OC3CC3)cc2)cc1C1CCN(C[C@H]2CN([C@@H](C(=O)O)C3CCCCC3)C[C@@H]2c2cccc(F)c2)CC1 | β-galactosidase | BaL |  | HeLa |  | EC90 |  | <0.00014 µM |
| Cc1ccnc2c1NC(=O)c1cccnc1N2C1CC1 | XTT | NL4-3 |  | CEM + CEM-SS | RT-L74V | fold resistance |  | 1 |